Columns and labels:
[1] = system: human buccal epithelial cells; experiment: Buccal epithelial cell competition assay with wild-type PAO; conditions: for affinity for human buccal epithelial cells: competition with wild-type PAO, immobilized BECs; for Ki: read-out: apparent Ki for inhibiting viable cell binding to human buccal epithelial cells
[2] = system: biotinylated viable PAKwt cells; conditions: peptide 51 nM to 51 μM, high concentrations up to 100 μg/ml
[3] = Direct binding of peptides to steel; conditions: method not stated
[4] = system: biotinylated purified PAK pili; experiment: Competitive inhibition of biotinylated PAK pili binding to stainless steel; conditions: peptide 51 nM to 51 μM, high concentrations up to 100 μg/ml

Substance	affinity for human buccal epithelial cells ([1]; listed as PAO(128-144)oxT130l)	affinity for human buccal epithelial cells ([1]; listed as PAO(128-144)oxT1301)	Ki [1] [µM]	effect of peptide on binding of biotinylated PAKwt cells to stainless steel [2]	binding of peptide to stainless steel [3]	effect of peptide on binding of biotinylated PAK pili to stainless steel ([4]; listed as PAO(128-144) T130l)	effect of peptide on binding of biotinylated PAK pili to stainless steel ([4]; listed as PAO(128-144)oxT130l)	effect of peptide on binding of biotinylated PAK pili to stainless steel ([4]; listed as PAO(128-144)oxT1301)	effect of peptide on binding of biotinylated PAK pili to stainless steel [4]
Ac-A-C-I-S-T-Q-D-P-M-F-T-P-K-G-C-D-N-OH	high affinity	enhanced	0.038	unable to inhibit	did not bind	do not inhibit the binding of pili	unable to inhibit	failed to inhibit binding to steel	–
Ac-A-C-K-S-T-Q-D-P-M-F-T-P-K-G-C-D-N-OH	–	–	12	–	–	–	–	–	inhibit the binding
